Pooled drug test results. Numbers come from NIAID ChemDB, via PubChem.

Shared fields: target-level tests

Neighbouring rows are from separate reports.

| SMILES | measure | read by | protein | strain | agent | dose | result |
|---|---|---|---|---|---|---|---|
| Oc1ccccc1Oc1ccc2ccccc2c1 | IC50 | - | Enoyl reductase | - | Mycobacterium tuberculosis | - | 12 µM |
| c1ccc(CSc2nnc3c4ccccc4c4ccccc4c3n2)cc1 | IC50 | - | Thiamin phosphate synthase | - | Mycobacterium tuberculosis | - | 100 µg/mL |
| Cc1cc(=O)n([C@@H]2O[C@H](CO)C3CNC(=O)OC32)c(=O)[nH]1 | Ki | - | Thymidine monophosphate kinase | - | Mycobacterium tuberculosis | - | 13.5 µM |
| CCCOc1ccc(OCC)cc1NCc1cnc2nc(N)nc(N)c2c1C | IC50 | - | Dihydrofolate reductase | - | Mycobacterium avium complex | - | 0.0089 µM |
| O=C1CSC(=O)N1 | IC50 | - | N-acetyltransferase | - | Mycobacterium smegmatis | - | >100 µM |
| CCN(CC)c1nc(Cl)nc(Nc2ccc3cc(-c4ccccc4)c(=O)oc3c2)n1 | IC50 | - | Thiamin phosphate synthase | - | Mycobacterium tuberculosis | - | >100 µg/mL |
| NCCCOc1ccc(Nc2ncc3ccc(=O)n(C4CCCC4)c3n2)cc1 | inhibition | kinase activity / radiometric | Protein kinase B | - | Mycobacterium tuberculosis | 10 µM | 94.2% |
| Cc1ccc(C(F)(F)F)cc1CNCc1cc(C(=N)C2CC2)c(Nc2ccccc2)[nH]c1=O | IC50 | fluorescence | Decaprenylphosphoryl-D-ribose oxidase | - | Mycobacterium tuberculosis | - | 0.01 µM |
| CCCCCCCCCCCC[C@@H]1CC(=O)N[C@@H](C(C)C)C(=O)N[C@@H](C(C)O)C(=O)N[C@@H](COCc2ccccc2)C(=O)O1 | IC50 | - | Protein tyrosine phosphatase A | - | Mycobacterium tuberculosis | - | >30 µM |
| O=C(O)[C@]1(O)C=C(c2ccc([N+](=O)[O-])cc2)[C@@H](O)[C@H](O)C1 | IC50 | - | Type II dehydroquinase | - | Mycobacterium tuberculosis | - | 6.5 µM |
| Cc1cn(C/C=C\CN2C(=O)c3cccc4cccc(c34)C2CO)c(=O)[nH]c1=O | Ki | absorbance | Thymidine monophosphate kinase | - | Mycobacterium tuberculosis | - | 6.2 µM |
| OC1C(O)C(O)C(O)C(O)C1O | inhibition | - | Phosphatidylinositol phosphate synthase | - | Mycobacterium bovis | 1000 µM | -2% |
| Cc1cn([C@@H]2O[C@H](CO)[C@H]3CNC(=S)O[C@H]32)c(=O)[nH]c1=O | Ki | - | Thymidine monophosphate kinase | - | Mycobacterium tuberculosis | - | 150 µM |
| COc1c(N2CCN(Cn3c(O)c(N=NC(N)=S)c4cc(F)ccc43)C(C)C2)c(F)cc2c(=O)c(C(=O)O)cn(C3CC3)c12 | IC50 | - | Gyrase | - | Mycobacterium tuberculosis | - | 8 µM |
| O=C(O)[C@]1(O)C=C(c2ccc3c(c2)NON3)[C@@H](O)[C@H](O)C1 | IC50 | - | Type II dehydroquinase | - | Mycobacterium tuberculosis | - | 1.95 µM |
| C=CC(C)(C)c1c(OC)oc(-c2ccccc2)cc1=O | inhibition | absorbance | MurE | - | Mycobacterium tuberculosis | 1000 µM | 83% |
| COc1cc(C(=O)NS(=O)(=O)c2ccccc2C)ccc1Cc1cn(C)c2ccc(NC(=O)OC3CCCC3)cc12 | Ki | binding | Lsr2 | - | Mycobacterium tuberculosis | - | 13.9 µM |
| Cc1cn([C@H]2C[C@H](CN=C(N)C[C@H]3C[C@H](n4cc(C)c(=O)[nH]c4=O)O[C@@H]3CO)[C@@H](CO)O2)c(=O)[nH]c1=O | Ki | - | Thymidine monophosphate kinase | H37Rv | Mycobacterium tuberculosis | - | 37 µM |
| O=C(O)[C@]1(O)C=C(c2cccc(C(F)(F)F)c2)[C@@H](O)[C@H](O)C1 | Ki | - | Type II dehydroquinase | - | Mycobacterium tuberculosis | - | 95 µM |
| Cc1ccc(C)n1-c1ccc(C(=O)O)cc1 | Ki | - | Protein tyrosine phosphatase A | - | Mycobacterium tuberculosis | - | 8 µM |
| CO[C@H]1/C=C/O[C@@]2(C)Oc3c(C)c(O)c4c(=O)c(c5oc6cc(N7CCN(CC(C)C)CC7)cc(=O)c6nc5c4c3=C2O)NC(=O)/C(C)=C\C=C\[C@H](C)[C@H](O)[C@@H](C)[C@@H](O)[C@@H](C)[C@H](OC(C)=O)[C@@H]1C | IC50 | - | RNA polymerase | N-266 | Mycobacterium avium | - | 0.04 µg/mL |
| Cc1ccc(Oc2ccccc2)c(O)c1 | Ki | - | Enoyl reductase | - | Mycobacterium tuberculosis | - | 4.2 µM |
| CC(=O)Nc1ccc(-n2c(C)ccc2C)c(C(=O)O)c1 | Ki | - | Protein tyrosine phosphatase A | - | Mycobacterium tuberculosis | - | 25 µM |
| CC(=O)c1c(C)c2cnc(Nc3ccc(N4CCN(C)CC4)cc3)nc2n(C2CCCC2)c1=O | IC50 | kinase activity / radiometric | Protein kinase B | - | Mycobacterium tuberculosis | - | 0.688 µM |
| C[C@H]1COC2(CCN(c3nc(=O)c4cc(C(F)(F)F)cc([N+](=O)[O-])c4s3)CC2)O1 | IC50 | fluorescence / absorbance | Cytochrome P450 1A2 | - | Mycobacterium tuberculosis | - | 21.98 µM |
| Nc1ncnc2c1ncn2[C@@H]1O[C@H](COP(=O)(O)OP(=O)([O-])OC[C@H]2O[C@@H](N3C=CC4C(=C3)C(=O)NC4(O)c3ccncc3)[C@H](O)[C@@H]2O)[C@@H](O)[C@H]1OP(=O)(O)O | Ki | - | Dihydrofolate reductase | - | Mycobacterium tuberculosis | - | 0.001 µM |
| COc1c(N2CCN(CN3C(=O)C(=Nc4ccc(S(=O)(=O)Nc5ncccn5)cc4)c4cc(F)ccc43)C(C)C2)c(F)cc2c(=O)c(C(=O)O)cn(C3CC3)c12 | IC50 | - | Gyrase | - | Mycobacterium tuberculosis | - | 6 µM |
| Cc1ccc(C)n1-c1ccc(C(=O)O)c(Cl)c1 | Ki | - | Protein tyrosine phosphatase A | - | Mycobacterium tuberculosis | - | 11 µM |
| O=P(O)(O)CC1[C@H](O)[C@H](O)C(O)[C@H](O)[C@H]1O | inhibition | - | Phosphatidylinositol phosphate synthase | - | Mycobacterium bovis | 1000 µM | 0% |
| O=C(O)[C@]1(O)C=C(c2ccc3occc3c2)[C@@H](O)[C@H](O)C1 | IC50 | - | Type II dehydroquinase | - | Mycobacterium tuberculosis | - | 2 µM |
| C/C(=N/N=C(N)N)c1cc(NC(=O)CCC(=O)Nc2cc(/C(C)=N\N=C(N)N)cc(/C(C)=N/N=C(N)N)c2)cc(/C(C)=N/N=C(N)N)c1 | inhibition | kinase activity / radiometric | Protein kinase B | - | Mycobacterium tuberculosis | 10 µM | 99.1% |
| Cc1cn(C/C=C/CN2C(=O)c3cccc4cccc(c34)C2=O)c(=O)[nH]c1=O | Ki | absorbance | Thymidine monophosphate kinase | - | Mycobacterium tuberculosis | - | >100 µM |
| O=C(Nc1ccccc1)N1CCc2c(c(-c3ccccc3)nn2Cc2cn(-c3cccc(Cl)c3)nn2)C1 | IC50 | absorbance | Pantothenate synthetase | - | Mycobacterium tuberculosis | - | 1.14 µM |
| O=C(O)[C@]1(O)C=C(c2ccc3ccccc3c2)[C@@H](O)[C@H](O)C1 | IC50 | - | Type II dehydroquinase | - | Mycobacterium tuberculosis | - | 1.2 µM |
| COC1=CC2=N/C1=C\c1ccc([nH]1)CCCC/C=C/CCCC1=CC=C2O1 | IC50 | - | Protein tyrosine phosphatase A | - | Mycobacterium tuberculosis | - | >30 µM |
| CCCCCCCc1ccc(Oc2ccccc2)c(O)c1 | IC50 | - | Enoyl reductase | - | Mycobacterium tuberculosis | - | 0.005 µM |
| Cc1cn(C/C=C\CN2C(=O)c3cccc4cccc(c34)C2=O)c(=O)[nH]c1=O | Ki | absorbance | Thymidine monophosphate kinase | - | Mycobacterium tuberculosis | - | 1.9 µM |
| O=C(Nc1ccccc1)N1CCc2c(c(-c3ccccc3)nn2Cc2cn(-c3ccc([N+](=O)[O-])cc3)nn2)C1 | IC50 | absorbance | Pantothenate synthetase | - | Mycobacterium tuberculosis | - | 8.97 µM |
| Cc1cn(C/C=C\CN2C(=O)C3=CC=CC4=CC=CC2C43)c(=O)[nH]c1=O | Ki | absorbance | Thymidine monophosphate kinase | - | Mycobacterium tuberculosis | - | 0.42 µM |
| O=C1CC[C@@H]2CN(Cc3ccccc3)CC[C@@]23N[C@H]2CCCC[C@@H]2N13 | IC50 | resazurin | NADH dehydrogenase | - | Mycobacterium tuberculosis | - | >1 µM |
| COc1c(N2CCN(Cn3c(O)c(N=NC(=O)c4ccncc4)c4cc(Cl)ccc43)C(C)C2)c(F)cc2c(=O)c(C(=O)O)cn(C3CC3)c12 | IC50 | - | Gyrase | - | Mycobacterium tuberculosis | - | 5 µM |
| O=C(O)CC1[C@@H](O)[C@H](O)C(O)[C@H](O)[C@@H]1O | inhibition | - | Phosphatidylinositol phosphate synthase | - | Mycobacterium bovis | 1000 µM | 7% |
| O=C(Nc1ccccc1)N1CCc2c(c(-c3ccccc3)nn2Cc2cn(-c3ccc(F)c(F)c3)nn2)C1 | IC50 | absorbance | Pantothenate synthetase | - | Mycobacterium tuberculosis | - | 1.56 µM |
| [2H]C([2H])([2H])OC(=O)N/C=C/CCCc1cc(O)c(C(=O)/C(C)=C/c2cnc(Oc3ccc(-c4ccccc4)cc3)s2)c(=O)o1 | IC50 | nucleotide incorporation / fluorescence | RNA polymerase | - | Mycobacterium tuberculosis | - | >6 µM |
| O=C(NO)C(O)C(O)COP(=O)([O-])[O-] | IC50 | - | Ribose-5-phosphate isomerase | - | Mycobacterium tuberculosis | - | 40 µM |
| O=C1c2cccc3cccc(c23)C(=O)N1C/C=C\Cn1cc(Br)c(=O)[nH]c1=O | Ki | absorbance | Thymidine monophosphate kinase | - | Mycobacterium tuberculosis | - | 1.1 µM |
| COc1c(N2CCN(Cn3c(O)c(N=NC(=O)c4ccncc4)c4cc(C)ccc43)C(C)C2)c(F)cc2c(=O)c(C(=O)O)cn(C3CC3)c12 | IC50 | - | Gyrase | - | Mycobacterium tuberculosis | - | 5.5 µM |
| Oc1ccccc1Oc1ccccc1 | Ki | - | Enoyl reductase | - | Mycobacterium tuberculosis | - | 7 µM |
| Cc1cc(=O)n([C@@H]2O[C@H](CO)C3CC(=O)OC32)c(=O)[nH]1 | Ki | - | Thymidine monophosphate kinase | - | Mycobacterium tuberculosis | - | 27 µM |
| NNC(=O)c1ccncc1 | IC50 | - | Alpha-ketoglutarate dehydrogenase | H37Rv | Mycobacterium tuberculosis | - | >1000 µM |
| O=C(Nc1ccccc1)N1CCc2c(c(-c3ccccc3)nn2Cc2cn(-c3ccc4c(c3)OCO4)nn2)C1 | IC50 | absorbance | Pantothenate synthetase | - | Mycobacterium tuberculosis | - | 8.39 µM |
| CC(C)[C@H]1CO[C@]23CCN(Cc4ccc(Cl)c(C(F)(F)F)c4)C[C@H]2CCC(=O)N13 | IC50 | resazurin | NADH dehydrogenase | - | Mycobacterium tuberculosis | - | <0.1 µM |
| Cc1cn([C@@H]2O[C@H](CO)[C@@H](O)[C@H]2O)c(=O)[nH]c1=O | Ki | - | Thymidylate kinase | - | Mycobacterium tuberculosis | - | 715 µM |
| CC(C)[C@H]1CO[C@]23CCN(Cc4cc5ccccc5n4C)C[C@H]2CCC(=O)N13 | IC50 | resazurin | NADH dehydrogenase | - | Mycobacterium tuberculosis | - | <0.1 µM |
| Cc1ccc(C(=O)O)cc1-n1c(C)ccc1C | Ki | - | Protein tyrosine phosphatase A | - | Mycobacterium tuberculosis | - | 28 µM |

Percent inhibition refers to the dose given; in toxicity tests it is the harm to the cells. An empty or dashed field is not shown. ICn is the concentration giving n% inhibition.